{
  "source": "paper PMC5453625",
  "about": "“Structural basis of nectin-1 recognition by pseudorabies virus glycoprotein D” (2017)",
  "target": "swine nectin-1 ectodomain (amino acids 30-335) (swine) (UniProt Q9GL76)",
  "assay": "SPR",
  "data": [
    {"substance": "PRV gD337 (pseudorabies virus glycoprotein D ectodomain, residues 1-337) (domain or fragment)", "values": [
      {"measurement": "Kd", "result": 301, "unit": "nM"},
      {"measurement": "koff", "result": 0.044, "unit": "s⁻¹"},
      {"measurement": "kon", "result": 146000, "unit": "M⁻¹ s⁻¹"}
    ]}
  ]
}
